Compound potency records, mixed from different reports. Data source: NIAID ChemDB in PubChem.

Shared fields: enzyme or target tests; organism: HIV-1; protein: Reverse transcriptase

ICn is the concentration giving n% inhibition.

SMILES,changes,strain or isolate,endpoint,method,value
Cn1c(COc2ccc(Cl)c(Oc3cc(Cl)cc(C#N)c3)c2)nc2ccccc21,,,IC50,nucleotide incorporation / radiometric,<20 µM
[N-]=[N+]=N[C@H]1C[C@H](n2ccc(=O)[nH]c2=O)O[C@@H]1COP(=O)(O)OP(=O)(O)OP(=O)(O)O,,LAV,IC50,,0.0096 µM
CC(C)(C#Cc1ccc(NC(=O)CSc2nnnn2-c2ccc(C3CC3)cc2Cl)c(Cl)c1)NC(=O)CNCCCn1ccnc1,RT-K103 Y181C,,IC50,PicoGreen / fluorescence,<1 µM
CC(C)Nc1cccnc1N(C)CCCN(C)C(=O)c1cc2ccccc2[nH]1,,,IC50,nucleotide incorporation,<100 µM
C=C(C)C#Cc1ccc(NC(=O)CSc2nnnn2-c2ccc(C3CC3)cc2Cl)c(Cl)c1,RT-K103 Y181C,,IC50,PicoGreen / fluorescence,<1 µM
CCN1c2ncc(CCOc3ccc(-c4ccc(CC(=O)O)cc4)cc3C)cc2-c2nccn2-c2cccnc21,RT-K103N Y181C,,IC50,nucleotide incorporation / radiometric,<0.05 µM
CCN1c2ncc(CCc3ccncc3)cc2C(=O)N(C)c2ccc(N)nc21,RT-Y181C,,IC50,nucleotide incorporation / radiometric,<1 µM
N#Cc1cc(Cl)cc(Oc2cc(CCc3[nH]nc4ncccc34)ccc2Cl)c1,,,IC50,nucleotide incorporation / radiometric,<20 µM
COc1cc(C)cc2c(-c3c(O)cc(O)c4c3C[C@H](C)N[C@H]4C)cc(-c3cc(-c4c(O)cc(O)c5c4C[C@H](C)N[C@H]5C)c4cc(C)cc(OC)c4c3O)c(O)c12,,,IC50,nucleotide incorporation,1 µM
CCN1c2ncc(CC(=O)c3ccncc3)cc2C(=O)N(C)c2ccc(Cl)nc21,RT-Y181C,,IC50,nucleotide incorporation / radiometric,<1 µM
CC(C)c1ccc(-n2nnnc2SCC(=O)Nc2ccc(C#CC(C)(C)C(=O)O)cc2Cl)c(Cl)c1,RT-K103 Y181C,,IC50,PicoGreen / fluorescence,<1 µM
CCN1c2ncc(CCOc3cccc4c3CS(=O)(=O)N4Cc3cc[n+]([O-])cc3)cc2-c2ncc(C)n2-c2cccnc21,RT-K103N Y181C,,IC50,nucleotide incorporation / radiometric,<0.05 µM
CC(C)Nc1cccnc1N1CCN(C(=O)c2cccc3c2NCC3)CC1,,,IC50,nucleotide incorporation,<100 µM
CN1CCN(NS(=O)(=O)c2ccc(NC(=O)CSc3nnnn3-c3ccc(C4CC4)cc3Cl)c(Cl)c2)CC1,RT-K103 Y181C,,IC50,PicoGreen / fluorescence,<1 µM
Oc1cc(O)c2c(c1)O[C@H](c1ccc(O)c(O)c1)[C@H](O)[C@H]2c1c(O)cc(O)c2c1O[C@H](c1ccc(O)c(O)c1)[C@H](O)C2,,,IC50,nucleotide incorporation,>20 µg/mL
CCC(c1nc(N(C)C)[nH]c(=O)c1C)c1c(F)cccc1F,L100I,,Ki,nucleotide incorporation,>20 µM
CCc1c(Cc2ccccc2)nc(SCSC)[nH]c1=O,,,IC50,scintillation proximity,12 µM
Cc1cccc(CS(=O)(=O)c2cccc[n+]2[O-])c1,,,IC50,nucleotide incorporation / radiometric,132 µg/mL
CC(C)(C)c1ccc(-n2nnnc2SCC(=O)Nc2ccc(C(=O)Nc3cccc4cccnc34)cc2Cl)c(Cl)c1,RT-K103 Y181C,,IC50,PicoGreen / fluorescence,<1 µM
Cc1ccc(/C=C/c2cc3ccc(Cl)c(C)c3nc2Cl)s1,,,IC50,RT activity,0.18 µg/mL
CCN1c2ncc(CCOc3ccc(-c4ccc(CC(=O)O)cc4)cc3C)cc2-c2ncc(C)n2-c2cccnc21,,,IC50,nucleotide incorporation / radiometric,<0.05 µM
Cc1c(Cl)ccc2cc(/C=C/C(=O)c3ccccc3Br)c(Cl)nc12,,,IC50,RT activity,0.3 µg/mL
CC(C)(C#Cc1ccc(NC(=O)CSc2nnnn2-c2ccc(C3CC3)cc2Cl)c(Cl)c1)C(=O)NCCN1CCCC1,,WT,IC50,PicoGreen / fluorescence,<1 µM
CCCCCCCCCCCCCc1cc(O)cc(O)c1,,,IC50,RT activity / RNase H,>200 µM
CC(C)(C#Cc1ccc(NC(=O)CSc2nnc(C(F)(F)F)n2-c2ccc(C3CC3)cc2Cl)c(Cl)c1)NC(=O)c1cc[n+]([O-])cc1,RT-K103 Y181C,,IC50,PicoGreen / fluorescence,<1 µM
Cc1cc(OCc2nc3ccccc3s2)cc(Oc2cc(Cl)cc(C#N)c2)c1,,,IC50,nucleotide incorporation / radiometric,<20 µM
CCNc1cccnc1N1CCN(Cc2cc3cc(OC)ccc3[nH]2)CC1,,,IC50,nucleotide incorporation,<100 µM
CC(C)(C#Cc1ccc(NC(=O)CSc2nnnn2-c2ccc(CC3CC3)cc2Cl)c(Cl)c1)C(=O)NCCCN1CCCC1=O,RT-K103 Y181C,,IC50,PicoGreen / fluorescence,<1 µM
Oc1cc(O)c2c(c1)O[C@H](c1ccc(O)c(O)c1)[C@H](O)[C@H]2c1c(O)cc(O)c2c1O[C@@]1(c3ccc(O)c(O)c3)Oc3cc(O)c4c(c3[C@@H]2[C@H]1O)O[C@H](c1ccc(O)c(O)c1)[C@H](O)[C@H]4c1c(O)cc(O)c2c1O[C@H](c1ccc(O)c(O)c1)[C@H](O)C2,,,IC50,nucleotide incorporation,>20 µg/mL
CCN1c2ncc(CCc3ccc4c(SC)c[nH]c4c3)cc2C(=O)N(C)c2ccc(Cl)nc21,RT-Y181C,,IC50,nucleotide incorporation / radiometric,<1 µM
CCN1c2ncc(CCOc3cccc4c3COC(=O)N4)cc2-c2ncc(C)n2-c2cccnc21,,,IC50,nucleotide incorporation / radiometric,<0.05 µM
CN1CCN(S(=O)(=O)c2ccc(NC(=O)CSc3nnnn3-c3ccc(C4CC4)cc3Cl)c(Cl)c2)CC1,,WT,IC50,PicoGreen / fluorescence,<1 µM
CCN1c2ncc(CCOc3ccc4c(c3)C(C)(C)NS4(=O)=O)cc2-c2nccn2-c2c(C)ccnc21,,,IC50,nucleotide incorporation / radiometric,<0.05 µM
CC(C)(C)c1ccc(-n2nnnc2SCC(=O)Nc2ccc(C(=O)Nc3ccc(O)cc3)cc2Cl)c(Cl)c1,,WT,IC50,PicoGreen / fluorescence,<1 µM
CCn1c(C)c(C(=O)OC)c(C(=O)OC)c1Cc1ccccc1,,G910-6,IC50,,0.74 µM
CN(C)c1nc(Cc2c(F)cccc2F)cc(=O)[nH]1,Y181I,,Ki,nucleotide incorporation,3 µM
CC(/C=C/C=C\C=C\C=C(/C)C(=O)NC(C)CO)=C\C(C)C(O)/C(C)=C/C(C)CCc1ccccc1,,,IC50,nucleotide incorporation,386 µM
N#Cc1cc(Cl)cc(Oc2cc(Cl)cc(OCC(=O)NCC3CCS(=O)(=O)C3)c2)c1,,,IC50,nucleotide incorporation / radiometric,<20 µM
O=C(O[C@@H]1[C@H](c2c(O)cc(O)c3c2O[C@H](c2ccc(O)c(O)c2)[C@H](OC(=O)c2cc(O)c(O)c(O)c2)C3)c2c(O)cc(O)c([C@H]3c4c(O)cc(O)cc4O[C@H](c4ccc(O)c(O)c4)[C@@H]3OC(=O)c3cc(O)c(O)c(O)c3)c2O[C@@H]1c1ccc(O)c(O)c1)c1cc(O)c(O)c(O)c1,,,IC50,nucleotide incorporation,>20 µg/mL
CCN1c2ncc(CCc3ccnc(C)c3)cc2C(=O)N(C)c2ccc(Cl)nc21,RT-Y181C,,IC50,nucleotide incorporation / radiometric,<1 µM
N#Cc1cc(Cl)cc(Oc2cc(OCc3nc(-c4ccccc4)no3)ccc2Cl)c1,,,IC50,nucleotide incorporation / radiometric,<20 µM
CCCCCCCCCCCCCc1cccc(O)c1,,,IC50,RT activity / nucleotide incorporation,>100 µM
O=C(O)Cc1ccc(-c2ccc(NC(=O)CSc3nnnn3-c3cc4c(cc3Cl)CCC4)c(Cl)c2)cc1,RT-K103 Y181C,,IC50,PicoGreen / fluorescence,<1 µM
O=C(CSC(=O)N1CCCc2cc(Cl)cc(Cl)c21)Nc1ccc(C(=O)NCc2ccccc2)cc1Cl,K103N,,IC50,scintillation proximity,0.002 µM
COc1ccc2[nH]c(C(=O)N(C)CCN(C)c3ncccc3NC(C)C)cc2c1,,,IC50,nucleotide incorporation,<100 µM
CN1CCN(C(=O)NC(C)(C)C#Cc2ccc(NC(=O)CSc3nnnn3-c3ccc(C4CC4)cc3Cl)c(Cl)c2)CC1,RT-K103 Y181C,,IC50,PicoGreen / fluorescence,<1 µM
CC(C)Nc1cccnc1N1CCN(C(=O)c2cc3cc([N+](=O)[O-])ccc3[nH]2)CC1,,,IC50,nucleotide incorporation,<100 µM
N#Cc1cc(Cl)cc(Oc2cc(Cl)cc(OCc3nc4ccccc4s3)c2)c1,,,IC50,nucleotide incorporation / radiometric,<20 µM
CC(C)(C#Cc1ccc(NC(=O)CSc2nnnn2-c2ccc(C3CC3)cc2Cl)c(Cl)c1)NC(=O)c1csnn1,RT-K103 Y181C,,IC50,PicoGreen / fluorescence,<1 µM
CC(C)Nc1ccnnc1N1CCN(C(=O)c2cc3ccccc3[nH]2)CC1,,,IC50,nucleotide incorporation,<100 µM
CCCCCC/C=C/CCCCCCCc1cccc(O)c1C(=O)O,,,IC50,RT activity / RNase H,33.7 µM
CC(C)(C)c1ccc(-n2nnnc2SCC(=O)Nc2ccc(-c3ccc(OCCN4CC[C@H](O)C4)cc3)cc2Cl)c(Cl)c1,RT-K103 Y181C,,IC50,PicoGreen / fluorescence,<1 µM
O=C(c1cc2cc(F)ccc2[nH]1)N1CCN(c2ncccc2NCC(F)(F)F)CC1,,,IC50,nucleotide incorporation,>100 µM
CC(C)(C#Cc1ccc(NC(=O)CSc2nnc(C(F)(F)F)n2-c2ccc(C3CC3)cc2Cl)c(Cl)c1)C(=O)O,,WT,IC50,PicoGreen / fluorescence,<1 µM
O=C(O)CP(=O)(O)O,,,IC50,,>500 µM
COc1ccc(C(=O)/C=C/c2cc3ccc(Cl)c(C)c3nc2Cl)cc1,,,IC50,RT activity,0.25 µg/mL
CC(C)c1ccc(-n2nnnc2SCC(=O)Nc2ccc(-c3ccc(OCCN4CCCC4)cc3)cc2Cl)c(Cl)c1,RT-K103 Y181C,,IC50,PicoGreen / fluorescence,<1 µM
O=C(O)C1=C[C@@H](O)[C@@H](O)[C@H](OC(=O)c2cc(O)c(O)c(OC(=O)c3cc(O)c(O)c(O)c3)c2)C1,,,IC50,nucleotide incorporation,>20 µg/mL
Cc1ccc(-n2nnnc2SCC(=O)Nc2ccc(-c3ccc(CC(=O)O)cc3)cc2[N+](=O)[O-])c(Cl)c1,,WT,IC50,PicoGreen / fluorescence,<1 µM
N#Cc1cc(Cl)cc(Oc2cc(OCc3[nH]nc4nc(N5CC(N)C5)ccc34)ccc2Cl)c1,,,IC50,nucleotide incorporation / radiometric,<20 µM
CCNc1cccnc1N1CCCN(C(=O)c2cc3cc(F)ccc3[nH]2)CC1,,,IC50,nucleotide incorporation,<100 µM
CCCC#Cc1ccc(NC(=O)CSc2nnnn2-c2ccc(C(C)(C)C)cc2Cl)c(Cl)c1,,WT,IC50,PicoGreen / fluorescence,<1 µM
O=C(OCC1OC(OC(=O)c2cc(O)c(O)c(O)c2)C(OC(=O)c2cc(O)c(O)c(O)c2)C(OC(=O)c2cc(O)c(O)c(O)c2)C1OC(=O)c1cc(O)c(O)c(O)c1Oc1cc2c(c(O)c1O)-c1c(cc(O)c(O)c1O)C(=O)OCC1OC(OC(=O)c3cc(O)c(O)c(O)c3)C(OC(=O)c3cc(O)c(O)c(O)c3)C(OC(=O)c3cc(O)c(O)c(O)c3)C1OC2=O)c1cc(O)c(O)c(O)c1,,,IC50,nucleotide incorporation,>20 µg/mL
CC(C)(O)C#Cc1ccc(NC(=O)CSc2nnnn2-c2c(F)ccc(C(F)(F)F)c2Cl)c(Cl)c1,RT-K103 Y181C,,IC50,PicoGreen / fluorescence,<1 µM
Cc1cn([C@H]2C=C[C@@H](CO)O2)c(=O)[nH]c1=O,,,IC50,,>100 µM
O=C(CSc1nnnn1-c1ccc(C2CC2)cc1Cl)Nc1ccc(C#CCCN2CCC(O)CC2)cc1Cl,RT-K103 Y181C,,IC50,PicoGreen / fluorescence,<1 µM
CSCSc1nc(Cc2ccccc2)c(C)c(=O)[nH]1,,,Ki,scintillation proximity,3.3 µM

A second listing of 6 rows from above:

N#Cc1cc(Cl)cc(Oc2cc(CCc3[nH]nc4ncccc34)ccc2Cl)c1 ; endpoint: IC50 ; method: nucleotide incorporation / radiometric ; value: <20 µM
CCC(c1nc(N(C)C)[nH]c(=O)c1C)c1c(F)cccc1F ; changes: L100I ; endpoint: Ki ; method: nucleotide incorporation ; value: >20 µM
O=C(c1cc2cc(F)ccc2[nH]1)N1CCN(c2ncccc2NCC(F)(F)F)CC1 ; endpoint: IC50 ; method: nucleotide incorporation ; value: >100 µM
N#Cc1cc(Cl)cc(Oc2cc(OCc3[nH]nc4nc(N5CC(N)C5)ccc34)ccc2Cl)c1 ; endpoint: IC50 ; method: nucleotide incorporation / radiometric ; value: <20 µM
Cc1cccc(CS(=O)(=O)c2cccc[n+]2[O-])c1 ; endpoint: IC50 ; method: nucleotide incorporation / radiometric ; value: 132 µg/mL
N#Cc1cc(Cl)cc(Oc2cc(Cl)cc(OCc3nc4ccccc4s3)c2)c1 ; endpoint: IC50 ; method: nucleotide incorporation / radiometric ; value: <20 µM

Blank or dashed fields: not listed here. Rows are shuffled and stem from different studies.